1 compound from patent US12037363B2, “Peptides for Covid-19 prevention and treatment” (SOTIRA COVID, LLC, priority 2020, dated 2024) can be followed below.

In this data set the test system is SARS-CoV2 in VERO E6 cells. Nature of the data set: dual immunostaining of ACIS peptide and S-glycoprotein in infected VERO cells. It counts as cell-based. To be noted: two hours of viral incubation. On the procedure:
Further confirming the profound activity of KEPTIDE COVIDs in the attenuation of viral infection, a dual immunostaining analyses with ACIS peptide (green) and S-glycoprotein (red) was performed. DAPI staining was carried out to identify big nuclei of VERO cells. […] The result was further corroborated with a quantification study that clearly indicated a strong inhibition of viral load around ACIS-treated VERO cells (***p<0.0001) (FIG. 6B).
In order to evaluate the efficacy of the KEPTIDE COVID in suppressing the secondary or chronic infection of SARS-COV2, testing was performed by dual immunostaining procedure after six hours of viral infection. […] The effect was further confirmed with a quantitative analysis (FIG. 7B).
Double Immunocytochemistry analyses was performed where […] VERO Cells were plated per well in 8-well chamber slide. Cells were starved with serum-free DMEM media for 30 mins followed by the treatment with 25 μM FITC-labeled KEPTIDE COVID. After another 30 mins, unbound KEPTIDE COVIDs were aspirated and then added SARS-CoV2 at a dose of 1-2 PFU/cell. After 2 and 6 hours of virus treatment, viral cells were removed, VERO cells were fixed with 8% PFA and kept at 4° C. for overnight. […]

The structures appear in SMILES notation.

As for `CC(C)[C@H](NC(=O)CNC(=O)[C@H](CC(N)=O)NC(=O)[C@@H](NC(=O)[C@@H]1CCCN1C(=O)[C@H](CCC(N)=O)NC(=O)[C@@H](N)Cc1ccccc1)[C@@H](C)O)C(=O)NCC(=O)N[C@@H](Cc1ccc(O)cc1)C(=O)N[C@@H](CCC(N)=O)C(=O)N1CCC[C@H]1C(=O)N[C@@H](Cc1ccc(O)cc1)C(=O)NCC(=O)O` [ACIS peptide, FQPTNGVGYQPYG], the “distribution of peptide on VERO cells” value was “perfectly aligned on the membrane of VERO cells”.
